Measurements: patent publication US4022962A, “Carbamylguanidine antimicrobial compounds” (Cooper Laboratories, Inc., priority 1975, dated 1977)

Assay: taste panel

SMILES	taste (aqueous solutions at the concentration useful for microbial inhibition)	bitter taste (compared with chlorhexidine)
N=C(NCCCCCCNC(=N)NC(=O)Nc1ccc(Cl)cc1)NC(=O)Nc1ccc(Cl)cc1 [1,6-bis(4-chlorophenylcarbamylguanidino)hexane digluconate]	essentially tasteless	
[H]/N=C(\N/C(=N/[H])NCCCCCCNC(=N)NC(=N)Nc1ccc(Cl)cc1)Nc1ccc(Cl)cc1 [chlorhexidine, 1,6-bis-(p-chlorophenylbiguanidino)hexane]		bitter taste
